# Assay results: PubChem BioAssay AID1800 (The Scripps Research Institute Molecular Screening Center, 2009)
# The list shows a part of the results, in another mix than the full data. Active and inactive are the calls of the source.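 Rule for the calls: active = inhibition above the mean of all tested compounds plus 3 SD, set per campaign (cut at about 35% in these data); inactive = the rest.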
# Tested on: Hepatitis C virus NS3 helicase
# Assay: HCV NS3 DNA unwinding blockers – biochemical, Cy5 molecular beacon fluorescence, primary screen (AID 1800)
# Details: at 10.9 µM, stronger effect = higher value
# Method in brief: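 System: NS3 helicase fragment of HCV / Schedule: 1 h at 25 °C / Control set: DMSO alone as 0% and 110 µM thioflavine S as 100% / Reagent: Cy5/quencher beacon DNA duplex and ATP to start / Technique: Cy5 fluorescence / Replication: singlicate / Evaluation: % inhibition of end-to-start signal ratio versus controls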
row,Compound,inhibition
1,CCOC(=O)N1CCC(Nc2cccc(C)c2)CC1,inactive: 3.17%
2,COc1cc(C(=O)NCC2(N(C)C)CCCCC2)ccc1OC(F)F,inactive: -1.83%
3,Cc1ccc(OCC(C)C)c(CN(CCCl)CCCl)c1,inactive: -3.76%
4,O=C(NCC1(N2CCCCC2)CCCCC1)c1ccc(F)cc1,inactive: -6.96%
5,CCOC(=O)N1CCC(Nc2ccc(F)cc2)CC1,inactive: 24.6%
6,COc1ccc(NC2CCN(CCc3ccccc3)CC2)c(OC)c1,inactive: -12.2%
7,CCOc1ccc(C)cc1CN(CCCl)CCCl,inactive: 3.26%
8,N#CC1(Nc2ccccc2)CCN(Cc2ccccc2)CC1,inactive: 5.58%
9,O=C(OC1CN2CCC1CC2)C1c2ccccc2Oc2ccccc21 (centres undefined),inactive: -6.69%
10,CCOC(=O)N1CCC(Nc2ccc(OC)cc2)CC1,inactive: -0.98%
11,Cc1cc(C)cc(N(C(=O)c2ccccc2)C2CCN(C(=O)OC(C)(C)C)CC2)c1,inactive: 10.6%
12,O=C(NCC1(N2CCOCC2)CCCCC1)c1cc2ccccc2o1,inactive: 1.74%
13,CSc1ccccc1C(=O)NCC1(N2CCCCC2)CCCCC1,inactive: -28.8%
14,COc1ccc(C(=O)NCC2(N3CCCCC3)CCCCC2)cc1,inactive: -0.67%
15,COc1ccc(C(=O)NCC2(N3CCCCC3)CCCCC2)c(OC)c1OC,inactive: 4.97%
16,CC(C)(C)OC(=O)N1CCC(N(C(=O)c2ccccc2)c2ccc(F)cc2)CC1,inactive: -3.13%
17,O=C(NCC1(N2CCCCC2)CCCCC1)c1ccc(=O)[nH]c1,inactive: 4.22%
18,CCCOc1ccc(C(=O)NCC2(N(C)C)CCCCC2)cc1OC,inactive: 5.46%
19,CN1CCC(Nc2cccc(F)c2)CC1,inactive: 4.17%
20,COc1cc(OC)c(C(=O)NCC2(N(C)C)CCCCC2)cc1OC,inactive: 7.13%
21,CC(C)c1ccc(NC2CCN(C(=O)OC(C)(C)C)CC2)cc1,inactive: -7.35%
22,COc1ccc(CN(CCCl)CCCl)cc1Cl,inactive: -2.67%
23,CN(C)c1cccc(C(=O)NCC2(N3CCCCC3)CCCCC2)c1,inactive: 1.72%
24,O=C(NCC1(N2CCOCC2)CCCCC1)c1cc(=O)[nH]c2ccccc12,inactive: -3.63%
25,COc1cc(C(=O)NCC2(N3CCCCC3)CCCCC2)ccc1OC(F)F,inactive: -17.1%
26,COc1ccc(NC2CCN(C(=O)OC(C)(C)C)CC2)cc1,inactive: 29.7%
27,CN1CCN(CCOC(=O)C(O)(c2ccccc2)c2ccccc2)CC1,inactive: -5.04%

row,Compound,inhibition
1,O=C(NCC1(N2CCCCC2)CCCCC1)c1cccc(C(F)(F)F)c1,inactive: 1.8%
2,CCN1CCC(Nc2ccc(Cl)cc2)CC1,inactive: 4.34%
3,N#CC1(Nc2ccccc2)CCN(CCc2ccccc2)CC1,inactive: 1.98%
4,O=C(NCC1(N2CCCCC2)CCCCC1)c1cccc([N+](=O)[O-])c1,inactive: -0.51%
5,O=C(NCC1(N2CCCCC2)CCCCC1)c1ccc(OC(F)F)cc1,inactive: -23.8%
6,CN(C)C1(CNC(=O)c2cccc(C#N)c2)CCCCC1,inactive: 1.32%
7,c1ccc(CN2CCC(Nc3ccccc3)CC2)cc1,inactive: -2.08%
8,CCCN1CCC(Nc2cc(OC)cc(OC)c2)CC1,inactive: 0.87%
9,N#Cc1ccc(C(=O)NCC2(N3CCCCC3)CCCCC2)cc1,inactive: 2.22%
10,CC(C)(C)OC(=O)N1CCC(N(C(=O)c2ccccc2)c2ccc(Cl)cc2)CC1,inactive: -12.5%
11,O=C(OC1CN2CCC1CC2)C1c2ccccc2C=Cc2ccccc21 (centres undefined),inactive: -4.82%
12,CCOC(=O)N1CCC(Nc2ccc(C)cc2)CC1,inactive: 5.85%
13,N/C(=N\O)c1c(N)no[n+]1[O-],inactive: 6.06%
14,COc1ccc(C(=O)NCC2(N3CCOCC3)CCCCC2)cc1OC,inactive: -3.59%
15,CN1CCC(Nc2ccc(Cl)cc2)CC1,inactive: -1.72%
16,CCCOc1ccc(C)cc1CN(CCCl)CCCl,inactive: -13.1%
17,COc1cccc(C(=O)N(c2cc(C)cc(C)c2)C2CCN(C(=O)OC(C)(C)C)CC2)c1,inactive: -8.64%
18,COc1cc(OC)cc(C(=O)NCC2(N3CCOCC3)CCCCC2)c1,inactive: 3.42%
19,CCC(CO)(C(=O)OC1CN2CCC1CC2)c1ccccc1 (centres undefined),inactive: 4.16%
20,CC(C)(C)OC(=O)N1CCC(Nc2ccccc2)CC1,inactive: -0.46%
21,O=C(O)C1(Nc2ccccc2)CCN(Cc2ccccc2)CC1,inactive: -7.64%
22,CCCOc1ccc(C(=O)NCC2(N(C)C)CCCCC2)cc1,inactive: -4.85%
23,CCOc1ncccc1C(=O)NCC1(N2CCOCC2)CCCCC1,inactive: 2.43%
24,CN1CCC(Nc2ccc(F)c(Cl)c2)CC1,inactive: 2.38%
25,CN(C)c1ccc(C(=O)NCC2(N3CCCCC3)CCCCC2)cc1,inactive: -10.4%
26,CCN1CCC(Nc2cccc(F)c2)CC1,inactive: 4.22%
27,COc1cc(OC)cc(C(=O)NCC2(N3CCCCC3)CCCCC2)c1,inactive: -5.44%
